Experimental data: PubChem BioAssay AID504761 (Drosophila RNAi Screening Center, 2011)
In all, the deposit lists about 22,000 reagents; shown is a random part of those that have a named target and a result. Of all reagents, 116 (0.52%) were called active. 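Calls depend on retest data that are not deposited; infection was ranked per plate without normalising between plates; the unit of the infection score is not given.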 The raw values are shown without normalisation. Reagents against one gene are numbered here. Names joined by + are all predicted targets of the reagent. No sequences are given here. Not given: the amount of reagent, the time to read-out.

- Aim: 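Fly genes whose silencing reduces dengue virus type 2 infection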 (primary screen)
- Cells: D.Mel-2 cells from Drosophila
- Knock-down reagent: long dsRNA against Drosophila genes
- Conditions: infection with dengue virus type 2; dose and infection time not stated
- Detection: 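Cells stained for dengue envelope protein and imaged; percent of infected cells per well on duplicate plates, ranked by infection, with stained nuclei counted for cell number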
- Scale: infection score: higher = more virus-infected cells; cell count: higher = more cells in the well
- Call rule: 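Very low infection ranking in both replicate wells (chance probability at most 0.065), then a retest showing infection dropped 1.5-fold or more at p below 0.05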
- Meaning of the calls: active = confirmed: knock-down lowers infection; inactive = not picked or not confirmed

| gene knocked down | dsRNA no. | infection score, replicate 1 | infection score, replicate 2 | cell count, replicate 1 | cell count, replicate 2 | call |
| --- | --- | --- | --- | --- | --- | --- |
| CG13247 (GeneID 40247) | 1 | 11.8 | 13.2 | 5856 | 5542 | inactive |
| CG2930 (GeneID 31341) | 1 | 5.63 | 2.25 | 6622 | 6660 | inactive |
| CG2930 (GeneID 31341) | 2 | 2.66 | 1.58 | 6317 | 5893 | inactive |
| Alms1b + Alms1a | 1 | 2.79 | 4.39 | 6067 | 6679 | inactive |
| Alms1b + Alms1a | 2 | 8.72 | 6.85 | 5926 | 6818 | inactive |
| CG10748 (GeneID 39469) | 1 | 1.06 | 1.27 | 5759 | 6298 | inactive |
| Osi6 (GeneID 40760) | 1 | 5.78 | 6.88 | 6591 | 6160 | inactive |
| Osi6 (GeneID 40760) | 2 | 2.82 | 5.72 | 6072 | 6362 | inactive |
| CG9297 (GeneID 41688) | 1 | 15.6 | 15.9 | 4922 | 5550 | inactive |
| CG9297 (GeneID 41688) | 2 | 6.3 | 7.44 | 6795 | 5930 | inactive |
| Mgat4b (GeneID 39609) | 1 | 2.16 | 3.91 | 6283 | 6315 | inactive |
| Mgat4b (GeneID 39609) | 2 | 2.84 | 0.95 | 6800 | 6214 | inactive |
| CG12134 (GeneID 36038) | 1 | 13.8 | 3.97 | 6535 | 6606 | inactive |
| CG12134 (GeneID 36038) | 2 | 13.2 | 12.1 | 5255 | 6283 | inactive |
| CG32719 (GeneID 318169) | 1 | 1.39 | 5.51 | 6096 | 6499 | inactive |
| CG32719 (GeneID 318169) | 2 | 2.93 | 10.8 | 6662 | 6139 | inactive |
| CG4709 (GeneID 34324) | 1 | 11 | 15.1 | 6599 | 6162 | inactive |
| CG9626 (GeneID 40979) | 1 | 3.59 | 3.27 | 6350 | 6370 | inactive |
| CG9626 (GeneID 40979) | 2 | 10.3 | 2.6 | 4870 | 6149 | inactive |
| CG10474 (GeneID 37211) | 1 | 1.44 | 0.52 | 6411 | 6563 | inactive |
| CG13858 (retired record) (GeneID 50058) | 1 | 5.25 | 3.56 | 6480 | 6937 | inactive |
| CG13858 (retired record) (GeneID 50058) | 2 | 3.12 | 2.3 | 6258 | 6533 | inactive |
| CG13858 (retired record) (GeneID 50058) | 3 | 1.98 | 2.42 | 6816 | 6990 | inactive |
| CG13858 (retired record) (GeneID 50058) | 4 | 2.11 | 3.28 | 6778 | 6972 | inactive |
| CG6426 (GeneID 36891) | 1 | 14.6 | 6.38 | 6345 | 6892 | inactive |
| Cyp4d20 (GeneID 38311) | 1 | 2.33 | 8.09 | 6579 | 6750 | inactive |
| Cyp4d20 (GeneID 38311) | 2 | 0.57 | 7.34 | 6273 | 5611 | inactive |
| RpS14a (GeneID 47218) | 1 | 9.5 | 11.6 | 1821 | 1468 | inactive |
| CheB53b (GeneID 3346204) | 1 | 5.43 | 4.3 | 6551 | 6215 | inactive |
| CheB53b (GeneID 3346204) | 2 | 19.1 | 18.1 | 3875 | 3435 | inactive |
| CG13185 (GeneID 36268) | 1 | 20.7 | 19.5 | 5019 | 5124 | inactive |
| Alg14 (GeneID 32479) | 1 | 1.14 | 1.19 | 6659 | 7070 | inactive |
| RhoGAP54D (GeneID 36996) | 1 | 13.9 | 7.18 | 6513 | 1059 | inactive |
| RhoGAP54D (GeneID 36996) | 2 | 4.63 | 3.19 | 6374 | 6361 | inactive |

Next part; the last 6 above are carried over.
| gene knocked down | dsRNA no. | infection score, replicate 1 | infection score, replicate 2 | cell count, replicate 1 | cell count, replicate 2 | call |
| --- | --- | --- | --- | --- | --- | --- |
| CheB53b (GeneID 3346204) | 1 | 5.43 | 4.3 | 6551 | 6215 | inactive |
| CheB53b (GeneID 3346204) | 2 | 19.1 | 18.1 | 3875 | 3435 | inactive |
| CG13185 (GeneID 36268) | 1 | 20.7 | 19.5 | 5019 | 5124 | inactive |
| Alg14 (GeneID 32479) | 1 | 1.14 | 1.19 | 6659 | 7070 | inactive |
| RhoGAP54D (GeneID 36996) | 1 | 13.9 | 7.18 | 6513 | 1059 | inactive |
| RhoGAP54D (GeneID 36996) | 2 | 4.63 | 3.19 | 6374 | 6361 | inactive |
| CG7071 + Muted | 1 | 10.1 | 5.06 | 6717 | 6360 | inactive |
| CG5391 (GeneID 42611) | 1 | 2.92 | 8.98 | 6605 | 5749 | inactive |
| ERR (GeneID 38912) | 1 | 8.26 | 6.49 | 5800 | 6067 | inactive |
| Dbct (GeneID 32441) | 1 | 9.02 | 4.6 | 6321 | 6088 | inactive |
| Dbct (GeneID 32441) | 2 | 1.4 | 6.93 | 6715 | 6318 | inactive |
| Targ2 (GeneID 326246) | 1 | 7.89 | 4.68 | 6451 | 7270 | inactive |
| Hacd1 (GeneID 34614) | 1 | 11.2 | 4.95 | 6315 | 6197 | inactive |
| CG42795 (GeneID 41252) | 1 | 2.16 | 1.24 | 5830 | 5888 | inactive |
| CG42795 (GeneID 41252) | 2 | 13.6 | 2.93 | 6829 | 7097 | inactive |
| CG42795 (GeneID 41252) | 3 | 4.15 | 1.8 | 7091 | 6720 | inactive |
| HnRNP-K (GeneID 43862) | 1 | 8.99 | 22.9 | 5350 | 5869 | inactive |
| HnRNP-K (GeneID 43862) | 2 | 1.71 | 5.35 | 6623 | 5397 | inactive |
| HnRNP-K (GeneID 43862) | 3 | 1.44 | 3.25 | 5952 | 6063 | inactive |
| mEFTu2 (GeneID 35681) | 1 | 24.8 | 38.5 | 6237 | 5638 | inactive |
| Sbp2 (GeneID 38934) | 1 | 11.1 | 7.14 | 6429 | 5925 | inactive |
| Miox (GeneID 39391) | 1 | 0.71 | 2.41 | 6458 | 6438 | inactive |
| Miox (GeneID 39391) | 2 | 8.27 | 14.7 | 6048 | 4608 | inactive |
| LSm3 (GeneID 42842) | 1 | 3.1 | 2.63 | 6332 | 6201 | inactive |
| CG31294 (GeneID 318666) | 1 | 5.57 | 4.72 | 6625 | 6394 | inactive |
| CG31294 (GeneID 318666) | 2 | 3.69 | 2.03 | 6470 | 5858 | inactive |
| CG31805 (GeneID 318952) | 1 | 7.11 | 1.7 | 5819 | 5780 | inactive |
| Ric (GeneID 36776) | 1 | 4.56 | 7.78 | 6892 | 6325 | inactive |
| Ric (GeneID 36776) | 2 | 0.59 | 9.3 | 6282 | 5948 | inactive |
| CG12490 + CG30265 | 1 | 5.63 | 5.89 | 6373 | 6278 | inactive |
